# Data as given in PubChem BioAssay AID504761 (Drosophila RNAi Screening Center, 2011)
# Aim: 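Genome-wide fly cell screen for genes dengue virus requires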 (primary screen)
# System: D.Mel-2 cells from Drosophila
# Reagents: long dsRNA against Drosophila genes
# Challenge: infection with dengue virus type 2; dose and infection time not stated
# Detection: 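Per well on two replicate plates, imaging gave the percent of cells positive for viral envelope protein, ranked by infection, and a nuclear count of cells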
# Direction: infection score: higher = more virus-infected cells; cell count: higher = more cells in the well
# Active means: 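Low infection ranks in the two replicates (chance level up to 0.065) followed by a retest with a 1.5-fold or larger significant decrease, p below 0.05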
# Meaning of the calls: active = confirmed: knock-down lowers infection; inactive = not picked or not confirmed
# In all, the deposit lists about 22,000 reagents; shown is a random part of those with a known target gene and a result. Over the whole deposit, 116 (0.52%) got an active call. 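Calls depend on retest data that are not deposited; infection was ranked per plate without normalising between plates; the unit of the infection score is not given.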 Raw values vary from plate to plate and are shown uncorrected. Unmarked entries are inactive. A plus sign joins genes that one reagent is predicted to hit. Not stated in the record: the amount of reagent, the time to read-out.
gene knocked down,dsRNA,"infection score, replicate 1","infection score, replicate 2","cell count, replicate 1","cell count, replicate 2"
GABA-B-R2 (metabotropic GABA-B receptor subtype 2),DRSC14134,2.65,4.16,6636,6900
GABA-B-R2 (metabotropic GABA-B receptor subtype 2),DRSC28127,3.59,13.3,6514,3416
CG9536,DRSC03254,1.85,3.54,6068,5675
CG9536,DRSC24736,8.33,7.14,7034,5408
"Itpr (Inositol 1,4,5,-trisphosphate receptor)",DRSC12354,4.07,5.62,5482,6205
"Itpr (Inositol 1,4,5,-trisphosphate receptor)",DRSC28770,11.8,0.24,1539,420
Gr21a (Gustatory receptor 21a),DRSC00366,1.76,1.52,6299,6383
Gr21a (Gustatory receptor 21a),DRSC28583,,0.32,334,313
CG4576,DRSC15604,1.25,10.3,6698,6287
CG4576,DRSC26364,9.13,5.62,3231,6578
CG42512 + CG32573,DRSC19532,5.61,1.74,5316,6790
CG42512 + CG32573,DRSC19906,7.04,21.1,6703,5250
CG42512 + CG32573,DRSC22782,1.74,6.98,6206,6534

Reformatted: entries from further up.
gene knocked down	dsRNA	infection score, replicate 1	infection score, replicate 2	cell count, replicate 1	cell count, replicate 2
Gr21a (Gustatory receptor 21a)	DRSC00366	1.76	1.52	6299	6383
Gr21a (Gustatory receptor 21a)	DRSC28583		0.32	334	313
CG4576	DRSC15604	1.25	10.3	6698	6287
CG4576	DRSC26364	9.13	5.62	3231	6578

More reagents follow:
gene knocked down,dsRNA,"infection score, replicate 1","infection score, replicate 2","cell count, replicate 1","cell count, replicate 2"
fd96Cb (forkhead domain 96Cb),DRSC16947,5.06,0.21,6745,476
fd96Cb (forkhead domain 96Cb),DRSC25322,0.64 (active),0.45,5745,6169
Prx6a (Peroxiredoxin 6a),DRSC00565,5.09,1.82,6520,6365
CG10005,DRSC14172,0.88,3.48,6575,6374
CG32606 (retired record),DRSC19001,0.37,0.03,6147,6554
CG32606 (retired record),DRSC19371,7.06,0.32,6004,6556
CG32606 (retired record),DRSC19372,10.3,12.2,4692,5129
CG32606 (retired record),DRSC23035,3.68,9.41,6251,6534
CG32606 (retired record),DRSC25810,2.29,8.66,6518,6261
CG32606 (retired record),DRSC26998,11.6,1.97,6569,6746
CG15743,DRSC19709,4.46,13.8,5876,6281
CG15743,DRSC26389,1.6,5.7,6323,6303
CG11596,DRSC18540,2.48,,6568,95
CG11596,DRSC28643,16.3,4.94,5004,4412
Taf10b (TBP-associated factor 10b),DRSC26605,4.19,2.84,6494,6412
CG4972,DRSC02798,5,1.35,6260,6457
lwr (lesswright),DRSC00828,3.8,1.14,4846,5637
lwr (lesswright),DRSC27034,12.3,1.49,5304,5227
CG10646,DRSC09764,2.23,0.8,6362,6648
TFAM (mitochondrial transcription factor A),DRSC15552,7.08,9.3,6523,6567
TFAM (mitochondrial transcription factor A),DRSC26903,7.93,1.75,5677,6292
CG14795,DRSC18513,7.92,15.2,7113,4919
CG14795,DRSC26338,12.1,11.2,4989,5859
"FucTA (alpha1,3-fucosyltransferase A)",DRSC10733,0.6,1.82,6282,6034
"Lamtor1 (Late endosomal/lysosomal adaptor, MAPK and MTOR activator 1)",DRSC10183,13.6,17.7,6220,6027
zld (zelda),DRSC23098,1.33,2.25,6450,6749
zld (zelda),DRSC25802,1.9,5.22,6542,5898
